According to paper PMC11492869, “Dimerization and lysine substitution of melittin have differing effects on bacteria” (Frontiers in Pharmacology, 2024):

What was measured:
Format in all cases: cell-based
[1] = system: Chicken red blood cells (RBCs); experiment: Hemolysis assay; details: for HC50: chicken RBCs in PBS pH 7.4, 2 × 10^7 cells/mL stock, 10–0.08 μM, 2 h at 37°C, absorbance 405 nm, 1% Triton X-100 positive control, mean ± SD, at least three biological repeats; for TI (hemolysis) / TI (haemolysis): chicken RBCs, HC50/MBC50; for TI (hemolysis): MBC50 toward S. aureus 29213; for TI (haemolysis): MBC50 towards E. coli 8729
Procedure: Chicken red blood cells (RBCs) in Alsever’s solution (RBCs, Equicell, Victoria, Australia) were diluted 1 in 20 in PBS (pH 7.4), pelleted by centrifugation, and washed three times in PBS (1,000 g, 10 min). The RBCs were counted using a cell counter (Coulter Particle Counter Z series, Beckman Coulter) and diluted to a final concentration of 2 × 10^7 cells/mL. Aliquots (100 μL) of the RBC solution were seeded into a V-bottomed 96-well plate containing 100 μL of serial dilutions (10–0.08 μM) of the AMP in PBS and incubated in a humidified atmosphere containing 5% CO2 at 37°C for 2 h. Following incubation, the RBCs were pelleted in a centrifuge (1,000 g, 10 min), and the amount of hemoglobin released in 100 μL aliquots of the supernatant was determined by measuring the absorbance at 405 nm using a microplate reader (PerkinElmer 1,420 Multilabel Counter VICTOR3). Positive and negative controls for hemolysis were taken as RBC lysed with 1% v/v Triton X-100 and RBC suspension in PBS, respectively. The percentage of hemolysis was calculated using the following formula: % Hemolysis A405 test sample−A405 negative control / A405 positive control−A405 negative controlx 100.
The percentage hemolysis was plotted against peptide concentration, and linear regression analysis was used to determine the hemolytic concentration needed to lyse 50% (HC50) of RBCs.

[2] = system: HEK-293 (ATCC CRL-1573) cells; experiment: Inhibition of cell proliferation, MTS assay; details: for TI (cell proliferation): HEK293, IC50/MIC50; for IC50: HEK293 cells, MTS proliferation assay after 90 min exposure, 1 h MTS, linear regression, mean ± SD, at least three biological repeats
Procedure: (§1) To determine the inhibition of cell proliferation, 20 μL of 3-(4,5-dimethylthiazol-2-yl)-5-(3-carboxymethoxyphenyl)-2-(4-sulfophenyl)-2H-tetrazolium (MTS) solution (CellTiter 96 AQueous Non-Radioactive Cell Proliferation Assay kit, Promega) was added to the remaining 100 µL from the toxicity assay, and the plates were incubated for a further 1 h at 37°C in a 5% CO2 incubator protected from light. Cell proliferation was determined by measuring absorbance at 490 nm using a microplate reader (PerkinElmer 1,420 Multilabel Counter VICTOR3). Positive and negative controls for inhibition were taken as cells incubated with lysis solution (CytoTox 96® Non-Radioactive Cytotoxicity Assay kit, Promega) and cells incubated in media alone, respectively. The background absorbance of media alone was subtracted from the samples, and the percentage of inhibition was calculated using the following formula: % Inhibition=A490 test sample−A490 negative control/A490 positive control−A490 negative control×100.
(§2) The percentage of inhibition was plotted against peptide concentration, and linear regression analysis was used to determine the AMP concentration needed to inhibit 50% (IC50) of cell growth.

[3] = system: H4IIE cells; experiment: Inhibition of cell proliferation, MTS assay; details: for IC50: H4IIE cells, MTS proliferation assay after 90 min exposure, 1 h MTS, linear regression, mean ± SD, at least three biological repeats; for TI (cell proliferation): H4IIE, IC50/MIC50
Procedure: as §1, §2

[4] = system: HEK-293 (ATCC CRL-1573) cells; experiment: Cytotoxicity (cell lysis), LDH release assay; details: for TI (cell lysis): HEK293, LD50/MBC50; for LD50: HEK293 cells, LDH release, 90 min exposure at 37°C, 20–0.5 μM, concentration lysing 50% of cells by linear regression, mean ± SD, at least three biological repeats
Procedure: (§3) To determine toxicity toward mammalian cells, 1 × 10^4 cells/well of HEK-293 (ATCC CRL-1573TM) or H4IIE in a total volume of […] in media (Eagle’s Minimum Essential Medium (EMEM) supplemented with 10% v/v fetal bovine serum, 5% v/v L-glutamine and 5% v/v penicillin/streptomycin) were seeded into 96-well plates and cultured at 37°C in a 5% CO2 incubator for 16–20 h. When cells were ≥90% confluent, the 100 µL media was removed and replaced with 50 μL serial dilutions of the AMP in media (final concentration 20–0.5 μM) and cultured at 37°C in a 5% CO2 incubator for 90 min. From each well, 50 µL was transferred to a new plate. To the 50 μL, 50 µL of lactate dehydrogenase (LDH) solution (CytoTox 96® Non-Radioactive Cytotoxicity Assay kit, Promega) was added to each well and incubated for a further 30 min at room temperature and protected from light. Cell death was determined by measuring absorbance at 490 nm using a microplate reader (PerkinElmer 1,420 Multilabel Counter VICTOR3). Positive and negative controls for inhibition were taken as cells incubated with lysis solution (CytoTox 96® Non-Radioactive Cytotoxicity Assay kit, Promega) and cells incubated in media alone, respectively. The background absorbance of media alone was subtracted from the sample absorbance, and the percentage of inhibition was calculated using the following formula: % Cytotoxicity=A490 test sample−A490 negative control/A490 positive control−A490 negative control×100.
(§4) The percentage of lysis was plotted against peptide concentration, and linear regression analysis was used to determine the AMP concentration needed to lyse 50% (LD50) of the cells.

[5] = system: H4IIE cells; experiment: Cytotoxicity (cell lysis), LDH release assay; details: for LD50: H4IIE cells, LDH release, 90 min exposure at 37°C, 20–0.5 μM, concentration lysing 50% of cells by linear regression, mean ± SD, at least three biological repeats; for TI (cell lysis): H4IIE, LD50/MBC50
Procedure: as §3, §4

Structure (SMILES) | HC50 [1] [µM] | TI (hemolysis) [1] | TI (haemolysis) [1] | TI (cell proliferation) ([2]; MIC50 toward S. aureus 29213) | TI (cell proliferation) ([2]; MIC50 towards E. coli 8729) | IC50 [2] [µM] | IC50 [3] [µM] | TI (cell proliferation) ([3]; MIC50 toward S. aureus 29213) | TI (cell proliferation) ([3]; MIC50 towards E. coli 8729) | TI (cell lysis) ([4]; MBC50 toward S. aureus 29213) | TI (cell lysis) ([4]; MBC50 towards E. coli 8729) | LD50 [4] [µM] | LD50 [5] [µM] | TI (cell lysis) ([5]; MBC50 toward S. aureus 29213) | TI (cell lysis) ([5]; MBC50 towards E. coli 8729)
CC[C@H](C)[C@H](NC(=O)CN)C(=O)NCC(=O)N[C@@H](C)C(=O)N[C@H](C(=O)N[C@@H](CC(C)C)C(=O)N[C@@H](CCCN)C(=O)N[C@H](C(=O)N[C@@H](CC(C)C)C(=O)N[C@H](C(=O)N[C@H](C(=O)NCC(=O)N[C@@H](CC(C)C)C(=O)N1CCC[C@H]1C(=O)N[C@@H](C)C(=O)N[C@@H](CC(C)C)C(=O)N[C@H](C(=O)N[C@@H](CO)C(=O)N[C@@H](Cc1c[nH]c2ccccc12)C(=O)N[C@H](C(=O)N[C@@H](CCCN)C(=O)N[C@@H](CCCNC(=N)N)C(=O)N[C@@H](CCCN)C(=O)N[C@@H](CCCNC(=N)N)C(=O)N[C@@H](CCC(N)=O)C(=O)N[C@@H](CCC(N)=O)C(N)=O)[C@@H](C)CC)[C@@H](C)CC)[C@@H](C)O)[C@@H](C)O)C(C)C)C(C)C [2. Lys → Orn melittin] | 1.4 ± 1.14 | 1.80 | 0.40 | 16.39 | 4.86 | 10.5 ± 2.65 | 3.37 ± 0.08 | 5.26 | 1.56 | 1.47 | 0.33 | 1.16 ± 0.09 | 2.22 ± 1.31 | 2.80 | 0.63
CC[C@H](C)[C@H](NC(=O)CN)C(=O)NCC(=O)N[C@@H](C)C(=O)N[C@H](C(=O)N[C@@H](CC(C)C)C(=O)N[C@@H](CCN)C(=O)N[C@H](C(=O)N[C@@H](CC(C)C)C(=O)N[C@H](C(=O)N[C@H](C(=O)NCC(=O)N[C@@H](CC(C)C)C(=O)N1CCC[C@H]1C(=O)N[C@@H](C)C(=O)N[C@@H](CC(C)C)C(=O)N[C@H](C(=O)N[C@@H](CO)C(=O)N[C@@H](Cc1c[nH]c2ccccc12)C(=O)N[C@H](C(=O)N[C@@H](CCN)C(=O)N[C@@H](CCCNC(=N)N)C(=O)N[C@@H](CCN)C(=O)N[C@@H](CCCNC(=N)N)C(=O)N[C@@H](CCC(N)=O)C(=O)N[C@@H](CCC(N)=O)C(N)=O)[C@@H](C)CC)[C@@H](C)CC)[C@@H](C)O)[C@@H](C)O)C(C)C)C(C)C [3. Lys → Dab melittin] | 1.33 ± 1.02 | 1.50 | 0.47 | 12.60 | 3.35 | 9.23 ± 2.91 | 3.08 ± 0.24 | 4.21 | 1.12 | 1.35 | 0.42 | 1.19 ± 0.22 | 2.42 ± 1.82 | 2.74 | 0.86
CC[C@H](C)[C@H](NC(=O)CN)C(=O)NCC(=O)N[C@@H](C)C(=O)N[C@H](C(=O)N[C@@H](CC(C)C)C(=O)N[C@@H](CN)C(=O)N[C@H](C(=O)N[C@@H](CC(C)C)C(=O)N[C@H](C(=O)N[C@H](C(=O)NCC(=O)N[C@@H](CC(C)C)C(=O)N1CCC[C@H]1C(=O)N[C@@H](C)C(=O)N[C@@H](CC(C)C)C(=O)N[C@H](C(=O)N[C@@H](CO)C(=O)N[C@@H](Cc1c[nH]c2ccccc12)C(=O)N[C@H](C(=O)N[C@@H](CN)C(=O)N[C@@H](CCCNC(=N)N)C(=O)N[C@@H](CN)C(=O)N[C@@H](CCCNC(=N)N)C(=O)N[C@@H](CCC(N)=O)C(=O)N[C@@H](CCC(N)=O)C(N)=O)[C@@H](C)CC)[C@@H](C)CC)[C@@H](C)O)[C@@H](C)O)C(C)C)C(C)C [4. Lys → Dap melittin] | 0.89 ± 0.39 | 0.64 | 0.32 | 18.07 | 5.10 | 14.3 ± 6.02 | 7.93 ± 0.12 | 10.00 | 2.82 | 1.47 | 0.72 | 2.02 ± 0.77 | 5.43 ± 0.91 | 3.93 | 1.93
CC[C@H](C)[C@H](NC(=O)CN)C(=O)NCC(=O)N[C@@H](C)C(=O)N[C@H](C(=O)N[C@@H](CC(C)C)C(=O)N[C@@H](CCCCN)C(=O)N[C@H](C(=O)N[C@@H](CC(C)C)C(=O)N[C@H](C(=O)N[C@H](C(=O)NCC(=O)N[C@@H](CC(C)C)C(=O)N1CCC[C@H]1C(=O)N[C@@H](C)C(=O)N[C@@H](CC(C)C)C(=O)N[C@H](C(=O)N[C@@H](CO)C(=O)N[C@@H](Cc1c[nH]c2ccccc12)C(=O)N[C@H](C(=O)N[C@@H](CCCCN)C(=O)N[C@@H](CCCNC(=N)N)C(=O)N[C@@H](CCCCN)C(=O)N[C@@H](CCCNC(=N)N)C(=O)N[C@@H](CCC(N)=O)C(=O)N[C@@H](CCC(N)=O)C(=O)NCCCC[C@H](N)C(=O)NCC(=O)N[C@H](C(=O)NCC(=O)N[C@@H](C)C(=O)N[C@H](C(=O)N[C@@H](CC(C)C)C(=O)N[C@@H](CCCCN)C(=O)N[C@H](C(=O)N[C@@H](CC(C)C)C(=O)N[C@H](C(=O)N[C@H](C(=O)NCC(=O)N[C@@H](CC(C)C)C(=O)N1CCC[C@H]1C(=O)N[C@@H](C)C(=O)N[C@@H](CC(C)C)C(=O)N[C@H](C(=O)N[C@@H](CO)C(=O)N[C@@H](Cc1c[nH]c2ccccc12)C(=O)N[C@H](C(=O)N[C@@H](CCCCN)C(=O)N[C@@H](CCCNC(=N)N)C(=O)N[C@@H](CCCCN)C(=O)N[C@@H](CCCNC(=N)N)C(=O)N[C@@H](CCC(N)=O)C(=O)N[C@@H](CCC(N)=O)C(N)=O)[C@@H](C)CC)[C@@H](C)CC)[C@@H](C)O)[C@@H](C)O)C(C)C)C(C)C)[C@@H](C)CC)[C@@H](C)CC)[C@@H](C)CC)[C@@H](C)O)[C@@H](C)O)C(C)C)C(C)C [6. Antiparallel dimer] | 0.29 ± 0.02 | 0.08 | 0.10 | 5.01 | 4.31 | 13 ± 1.91 | 7.91 ± 0.82 | 3.06 | 2.63 | 0.55 | 0.71 | 2.01 ± 0.66 | 4.66 ± 4.49 | 1.28 | 1.65
